Pooled drug test results. Numbers come from NIAID ChemDB, via PubChem.

Common to all: growth or infection tests; organism: Herpes simplex virus 2; read-out: EC50

Blank or dashed fields: not listed here. Lines come from different laboratories, so protocols vary. ECn is the concentration giving n% inhibition of infection, replication or growth.

compound,strain,method,value
[N-]=[N+]=N[C@H]1C[C@H](CO)S[C@@H]1n1ccc(=O)[nH]c1=O,-,-,>100 µg/mL
O=c1[nH]c(=O)n([C@@H]2S[C@H](CO)[C@@H](O)[C@@H]2F)cc1I,MS,cytopathic effect,0.32 µg/mL
[N-]=[N+]=N[C@@H]1C[C@@H](CO)S[C@H]1n1cnc2c(=O)[nH]cnc21,-,-,>100 µg/mL
CCCCc1cn([C@@H]2O[C@H](COP(=O)(O)O)[C@@H](O)[C@H]2O)c(=O)nc1N,G,-,>400 µg/mL
Nc1nc(F)nc2c1ncn2[C@@H]1S[C@H](CO)[C@@H](O)[C@@H]1F,MS,cytopathic effect,3 µg/mL
[N-]=[N+]=N[C@H]1C[C@@H](CO)S[C@@H]1n1cnc2c(=O)[nH]cnc21,-,-,>100 µg/mL
COc1ccc(-c2[nH]c3nc4c(ncn4COCCO)c(=O)n3c2-c2ccc(C(c3ccccc3)c3ccccc3)cc2)cc1,LYONS,cytopathic effect,>16 µg/mL
Cc1cn([C@@H]2O[C@H](COP(=O)(O)O)[C@@H](O)[C@H]2O)c(=O)nc1N,196,-,>400 µg/mL
CC(=O)OCCOCn1cnc2c(=O)n3cc(-c4ccc5ccccc5c4)[nH]c3nc21,196,cytopathic effect,>16 µg/mL
[N-]=[N+]=N[C@H]1C[C@H](CO)S[C@H]1n1cnc2c(=O)[nH]cnc21,-,-,>100 µg/mL
O=c1[nH]c(=O)n([C@@H]2S[C@H](CO)[C@@H](O)[C@@H]2F)cc1F,MS,cytopathic effect,>27 µg/mL
COc1ccc(-c2cn3c(=O)c4ncn(COC(CO)CO)c4nc3[nH]2)cc1,196,cytopathic effect,0.08 µg/mL
Cc1cn([C@@H]2OC3COP(=O)(O)OC3[C@H]2O)c(=O)nc1N,196,-,>400 µg/mL
[N-]=[N+]=N[C@H]1C[C@H](CO)S[C@@H]1n1cnc2c(=O)[nH]cnc21,-,-,>100 µg/mL
CCCCCc1cn([C@@H]2O[C@H](COP(=O)(O)O)[C@@H](O)[C@H]2O)c(=O)nc1N,196,-,>400 µg/mL
Nc1ncnc2c1ncn2[C@@H]1S[C@H](CO)[C@@H](O)[C@@H]1F,MS,cytopathic effect,9 µg/mL
O=c1c2ncn(COC(CO)CO)c2nc2[nH]c(-c3ccccc3)cn12,196,cytopathic effect,0.02 µg/mL
CC(C)c1cn([C@@H]2OC3COP(=O)(O)OC3[C@H]2O)c(=O)nc1N,196,-,>400 µg/mL
Cc1cn([C@H]2S[C@H](CO)C[C@H]2N=[N+]=[N-])c(=O)[nH]c1=O,-,-,>100 µg/mL
O=c1c2ncn(COC(CO)CO)c2[nH]c2nccn12,LYONS,cytopathic effect,0.7 µg/mL

Again, the opening 2 rows:

| compound | strain | method | value |
|---|---|---|---|
| [N-]=[N+]=N[C@H]1C[C@H](CO)S[C@@H]1n1ccc(=O)[nH]c1=O | - | - | >100 µg/mL |
| O=c1[nH]c(=O)n([C@@H]2S[C@H](CO)[C@@H](O)[C@@H]2F)cc1I | MS | cytopathic effect | 0.32 µg/mL |